Values quoted from earlier work in publication PMC9054008 (Science Advances, 2022).

The chains behind the UniProt entries cited, without tags or fusion partners.
UniProt P14434, whole entry: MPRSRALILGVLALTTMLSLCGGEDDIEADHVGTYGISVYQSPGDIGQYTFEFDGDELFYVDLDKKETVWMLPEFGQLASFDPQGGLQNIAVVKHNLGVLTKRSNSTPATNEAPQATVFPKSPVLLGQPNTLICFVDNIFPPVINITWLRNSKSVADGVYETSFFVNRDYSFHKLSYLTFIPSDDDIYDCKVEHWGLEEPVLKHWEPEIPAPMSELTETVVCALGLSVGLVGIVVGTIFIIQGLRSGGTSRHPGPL
UniProt P14483, whole entry: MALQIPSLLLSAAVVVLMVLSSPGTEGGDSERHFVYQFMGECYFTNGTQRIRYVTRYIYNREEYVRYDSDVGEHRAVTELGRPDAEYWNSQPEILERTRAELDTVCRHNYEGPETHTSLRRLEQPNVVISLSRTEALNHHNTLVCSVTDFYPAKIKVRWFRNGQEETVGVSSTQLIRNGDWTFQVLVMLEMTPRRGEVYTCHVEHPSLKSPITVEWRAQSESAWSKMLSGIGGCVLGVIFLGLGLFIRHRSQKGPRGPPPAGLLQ

Target: I-Ab (Mus musculus, UniProt P14434+P14483)
Conditions: cited from earlier work

Sequence | IC50 [µM]
LMIAHRVLLSSILES | 7.16
YDMFNLLLMKPLGIE | 6.75
VSLIAIIKGIVNLYK | 7.74
IIKYNRRLAKSIICE | 8.39
GLVSQLSVLSSITNI | 5.28
ELLDQSDVKEPGVSR | 9.97
TSAFNKKTFDHTLMS | 10
LKAEAQMSIQLINKA | 9.06
VVPDGYKLTGNVLIL | 6.52
IEYAKLYVLSPILAE | 0.282
DQEYHRLIHSLSKTS | 0.964
SISKRAYMATTILEM | 0.0319
